Compound potency records, mixed from different reports. Data source: NIAID ChemDB in PubChem.

Shared fields: cytotoxicity tests; cell line: HepG2; endpoint: CC50

a–b is a range or a potency band.

C/C(=C\CP(=O)(OCOC(=O)OC(C)C)OCOC(=O)OC(C)C)Cn1cc(C(C)(C)C)nn1 ; method: absorbance ; result: >100 µM
CC[C@H]1OC(=O)[C@H](C)[C@@H](O[C@H]2C[C@@](C)(OC)[C@@H](O)[C@H](C)O2)[C@H](C)[C@@H](O[C@@H]2O[C@H](C)C[C@H](N(C)C)[C@H]2OCCCNC(=O)CCCNc2ccnc3ccccc23)[C@](C)(O)C[C@@H](C)CN(C)[C@H](C)[C@@H](O)[C@]1(C)O ; method: MTS ; result: >100 µM
CCCCCCc1ccc(-c2cn(C/C(C)=C/CP(=O)(OCOC(=O)OC(C)C)OCOC(=O)OC(C)C)nn2)cc1 ; method: absorbance ; result: 59.6 µM
CC[C@H]1OC(=O)[C@H](C)[C@@H](O[C@H]2C[C@@](C)(OC)[C@@H](O)[C@H](C)O2)[C@H](C)[C@@H](O[C@@H]2O[C@H](C)C[C@H](N(C)C)[C@H]2OCCCNc2ccnc3ccccc23)[C@](C)(O)C[C@@H](C)CN(C)[C@H](C)[C@@H](O)[C@]1(C)O ; method: MTS ; result: 80 µM
CCOC(=O)CCCCCOc1cccc(CN(C(=O)c2ccc(-c3ccc4c(c3)OCO4)cc2)C(C)C)c1 ; result: >20 µM
c1cncc(-c2noc(C3CCN(c4ccc5cc(-c6ccncc6)ccc5n4)CC3)n2)c1 ; method: MTS ; result: >100 µM
Nc1nc(N)nc(-c2ccc(Oc3ccc(Cl)cc3)cc2)n1 ; method: sulforhodamine / absorbance ; result: >255 µM
NC(=NC1CCC1)c1ccc(N2CCN(c3ccc(C(N)=NC4CCC4)cc3)CC2)cc1 ; result: >5.8 µg/mL
CCCOc1ccc(C(=O)Nc2sc(C)c(C)c2C(N)=O)cc1 ; method: luminescence ; result: >100 µM
C/C(=C\CP(=O)(OCOC(=O)OC(C)C)OCOC(=O)OC(C)C)Cn1cc(-c2ccc([N+](=O)[O-])cc2)nn1 ; method: absorbance ; result: 85.3 µg/mL
COc1ccc2c3conc3c(=O)n(CCCN3C[C@@H]4CN(c5ccc6c(n5)NC(=O)CO6)C(=O)O[C@H]4C3)c2c1 ; method: luminescence ; result: 10–100 µg/mL
Nc1nc(N)nc(-c2ccc(Sc3ccccc3)cc2)n1 ; method: sulforhodamine / absorbance ; result: >271 µM
CCCCCCCCCCCCN=C(N)c1ccc(N2CCN(c3ccc(C(N)=NCCCCCCCCCCCC)cc3)CC2)cc1 ; result: 24.8 µg/mL
CC[C@H]1OC(=O)[C@H](C)[C@@H](O)[C@H](C)[C@@H](O[C@@H]2O[C@H](C)C[C@H](N(C)C)[C@H]2OCCCNCc2cnc3ccccc3c2)[C@](C)(O)C[C@@H](C)CN(C)[C@H](C)[C@@H](O)[C@]1(C)O ; method: MTS ; result: >100 µM
COC(=O)c1cn(C/C(C)=C/CP(=O)(OCOC(=O)OC(C)C)OCOC(=O)OC(C)C)nn1 ; method: absorbance ; result: >100 µM
CC(=O)N1CC[C@H](NC(=O)C(=O)c2c(C)c(C(=O)Nc3ccc(F)c(C)c3)c(C)n2C)C[C@@H]1C ; method: MTT ; result: >30 µM
c1cc(N2CCN(c3ccc(C4=NCCN4)cc3)CC2)ccc1C1=NCCN1 ; result: 290.6 µM
O=C(CSc1ccccc1)Nc1ccc(Br)cc1 ; method: luminescence ; result: >100 µM
CNC(=O)c1ccc(-n2c([C@@H](O)C(C)C)nc3c(c2=O)C[C@@H](C)N(C(=O)c2ccc(Br)c(C(F)(F)F)c2)C3)cc1 ; method: luminescence ; result: >50 µM
NC(=NC1CC1)c1ccc(N2CCN(c3ccc(C(N)=NC4CC4)cc3)CC2)cc1 ; result: >543 µM
CC[C@H]1OC(=O)[C@H](C)[C@@H](O)[C@H](C)[C@@H](O[C@@H]2O[C@H](C)C[C@H](N(C)C)[C@H]2OCCCNC(=O)CNc2ccnc3cc(Cl)ccc23)[C@](C)(O)C[C@@H](C)CN(C)[C@H](C)[C@@H](O)[C@]1(C)O ; method: MTS ; result: >100 µM
CCCc1ccc(-c2cn(C/C(C)=C/CP(=O)(OCOC(=O)OC(C)C)OCOC(=O)OC(C)C)nn2)cc1 ; method: absorbance ; result: 18.3 µM
NC[C@H]1OB(O)c2c3c(cc(Cl)c21)OCCO3 ; method: radiometric ; result: 82.8 µM
Cc1cc(NC(=O)c2c(C)c(C(=O)C(=O)N[C@@H]3CC[C@H](O)C[C@H]3F)n(C)c2C)ccc1F ; method: MTT ; result: >30 µM
COc1cccc2ccc(N3CCC(c4nc(-c5ccc(Cl)nc5)no4)CC3)nc12 ; method: MTS ; result: 20–50 µM
C=CCCN(Cc1cc(OC)cc(OC)c1)C(=O)CC(C)=O ; result: <7.5 µM
CCOc1ccc(Br)c2c1B(O)O[C@@H]2CN ; method: radiometric ; result: 30.5 µM
CCOC(=O)CCCCCOc1cccc(CN(C(=O)c2ccc(-c3cccc(C#N)c3)cc2)C(C)C)c1 ; result: >20 µM
Cc1nc(C2CCC(n3c(NC(C)C)nc4c(c3=O)C[C@@H](C)N(C(=O)c3ccc(Cl)c(C(F)(F)F)c3)C4)CC2)n[nH]1 ; method: luminescence ; result: 12.79 µM
COc1ccc2nc(N3CCC(c4nc(-c5cccnc5)no4)CC3)ccc2c1 ; method: MTS ; result: >100 µM
Cc1cc(NC(=O)c2c(C)c(C(=O)C(=O)NC3CCC(S(C)(=O)=O)CC3)n(C)c2-c2ccsc2)ccc1F ; method: MTT ; result: >30 µM
N#Cc1ccc(Cn2ccc3c4c(N)nc(N)nc4ccc32)cc1 ; method: resazurin / fluorescence ; result: 10 µM
CCc1ccccc1NC(=O)c1c(NC(=O)c2cccc(Cl)c2)sc2c1CCC2 ; method: luminescence ; result: >25 µM
Nc1nc(N)nc(-c2ccc(Oc3ccc(F)cc3)cc2)n1 ; method: sulforhodamine / absorbance ; result: >269 µM
COC(=O)c1cc(-c2cccs2)nc2ccccc12 ; result: >20 µM
NC[C@H]1OB(O)c2c(OCCO)ccc(Br)c21 ; method: radiometric ; result: 116 µM
O=C(Nc1ccc(C(F)(F)F)cc1)Nc1cccc(Cl)c1 ; method: luminescence ; result: 5.5 µM
C[C@H](NC(=O)[C@H](Cc1ccccc1)C[C@@H](O)[C@H](Cc1ccccc1)NC(=O)OC(C)(C)C)C(=O)N[C@@H]1C(=O)N(C)c2ccccc2-c2ccccc21 ; result: >10 µM
Cc1c(Cc2ccccc2Br)cnc2nc(N)nc(N)c12 ; method: resazurin / fluorescence ; result: 40 µM
CC[C@H]1OC(=O)[C@H](C)[C@@H](O[C@H]2C[C@@](C)(OC)[C@@H](O)[C@H](C)O2)[C@H](C)[C@@H](O[C@@H]2O[C@H](C)C[C@H](N(C)C)[C@H]2OCCCN(C)Cc2cnc3ccccc3c2)[C@](C)(O)C[C@@H](C)CN(C)[C@H](C)[C@@H](O)[C@]1(C)O ; method: MTS ; result: 47 µM
CCC1(NC(=O)C(=O)c2c(C)c(C(=O)Nc3ccc(F)c(C)c3)c(C)n2C)CCN(C(=O)c2ccnn2C)CC1 ; method: MTT ; result: >30 µM
COc1ccc(CCNC(=O)CCCCC(C)=O)cc1OC ; result: >20 µM
Cc1cc(NC(=O)c2c(C)c(C(=O)C(=O)NC3(CC(=O)O)CCNCC3)n(C)c2C)ccc1F ; method: MTT ; result: >30 µM
COc1ccc(Cl)c2c1B(O)O[C@@H]2CN ; method: radiometric ; result: 105 µM
COc1ccc2c3conc3c(=O)n(CCN3C[C@@H]4CN(c5ccc6c(n5)NC(=O)CO6)C(=O)O[C@H]4C3)c2n1 ; method: luminescence ; result: 1–10 µg/mL
Cc1ccc2[nH]c3cc(C#N)c(=O)oc3c2c1 ; method: visual reading / absorbance ; result: 0.8 µg/mL
CNC(=O)c1cn(C/C(C)=C/CP(=O)(OCOC(=O)OC(C)C)OCOC(=O)OC(C)C)nn1 ; method: absorbance ; result: >100 µM
CC(C)CCN=C(N)c1ccc(N2CCN(c3ccc(C(N)=NCCC(C)C)cc3)CC2)cc1 ; result: >0.9 µg/mL
CCOC(=O)CCCCCOc1cccc(CN(C(=O)c2ccc(-c3ccncc3)cc2)C(C)C)c1 ; result: >20 µM
COc1ccc(OCC(=O)Nc2sc3c(c2C(=O)NC2CCS(=O)(=O)C2)CCCC3)cc1 ; method: luminescence ; result: >100 µM
NC(=NC1CCCCCC1)c1ccc(N2CCN(c3ccc(C(N)=NC4CCCCCC4)cc3)CC2)cc1 ; result: >0.69 µg/mL
COc1cccc2ccc(N3CCC(c4nc(-c5ccc(N6CCNCC6)nc5)no4)CC3)nc12 ; method: MTS ; result: <20 µM
Cc1ccc(SCC(=O)Nc2ccc(Br)c(C)c2)cc1 ; method: luminescence ; result: >100 µM
CC(=O)c1cccc(-c2ccc(C(=O)N(Cc3cccc(OCCCCCC(=O)OC(=O)O)c3)C(C)C)cc2)c1 ; result: >20 µM
CC[C@H]1OC(=O)[C@H](C)[C@@H](O[C@H]2C[C@@](C)(OC)[C@@H](O)[C@H](C)O2)[C@H](C)[C@@H](O[C@@H]2O[C@H](C)C[C@H](N(C)C)[C@H]2OCCCNCc2cnc3ccccc3c2)[C@](C)(O)C[C@@H](C)CN(C)[C@H](C)[C@@H](O)[C@]1(C)O ; method: MTS ; result: 20 µM
O=c1c(C=NCc2cccnc2)c(NCc2cccnc2)nc2ccccn12 ; method: luminescence ; result: >100 µM
CCOC(=O)COC1CCC(NC(=O)C(=O)c2c(C)c(C(=O)Nc3ccc(F)c(C)c3)c(C)n2C)CC1 ; method: MTT ; result: >30 µM
Nc1nc(N)nc(-c2ccc(Oc3ccccc3Cl)cc2)n1 ; method: sulforhodamine / absorbance ; result: >255 µM
CC[C@H]1OC(=O)[C@H](C)[C@@H](O[C@H]2C[C@@](C)(OC)[C@@H](O)[C@H](C)O2)[C@H](C)[C@@H](O[C@@H]2O[C@H](C)C[C@H](N(C)C)[C@H]2OCCCNC(=O)CCCNc2ccnc3cc(Cl)ccc23)[C@](C)(O)C[C@@H](C)CN(C)[C@H](C)[C@@H](O)[C@]1(C)O ; method: MTS ; result: 50 µM
CCOC(=O)CCCCCOc1cccc(CN(C(=O)c2ccc(-c3cccc(C(F)(F)F)c3)cc2)C(C)C)c1 ; result: >20 µM
CCCCCCCCCN=C(N)c1ccc(N2CCN(c3ccc(C(N)=NCCCCCCCCC)cc3)CC2)cc1 ; result: 6.63 µg/mL
CCOC(=O)c1cn(C/C(C)=C/CP(=O)(OCOC(=O)OC(C)C)OCOC(=O)OC(C)C)nn1 ; method: absorbance ; result: >100 µM
Cc1cc(NC(=O)c2c(C)c(C(=O)C(=O)NC3CCC(O)CC3)n(C)c2-c2ccsc2)ccc1F ; method: MTT ; result: 5–30 µM
CCCCCc1ccc(-c2cn(C/C(C)=C/CP(=O)(OCOC(=O)OC(C)C)OCOC(=O)OC(C)C)nn2)cc1 ; method: absorbance ; result: 51.8 µM
COc1cc(OC)cc(-c2noc(C3CCN(c4ccc5cccc(OC)c5n4)CC3)n2)c1 ; method: MTS ; result: >100 µM
CCCCc1ccc(-c2cn(C/C(C)=C/CP(=O)(OCOC(=O)OC(C)C)OCOC(=O)OC(C)C)nn2)cc1 ; method: absorbance ; result: 16.2 µM
CNC(=O)CCn1c(NC(C)C)nc2c(c1=O)C[C@@H](C)N(C(=O)c1ccc(Cl)c(C(F)(F)F)c1)C2 ; method: luminescence ; result: >50 µM
C[C@H](NC(=O)[C@@H](O)C1CCCCC1)C(=O)N[C@@H]1C(=O)N(C)c2ccccc2-c2ccccc21 ; result: >10 µM
Cc1cc(Oc2ccc(-c3nc(N)nc(N)n3)cc2)cc(C)c1Cl ; method: sulforhodamine / absorbance ; result: >234 µM

The last 6 rows once more:

compound | method | result
CCCCCc1ccc(-c2cn(C/C(C)=C/CP(=O)(OCOC(=O)OC(C)C)OCOC(=O)OC(C)C)nn2)cc1 | absorbance | 51.8 µM
COc1cc(OC)cc(-c2noc(C3CCN(c4ccc5cccc(OC)c5n4)CC3)n2)c1 | MTS | >100 µM
CCCCc1ccc(-c2cn(C/C(C)=C/CP(=O)(OCOC(=O)OC(C)C)OCOC(=O)OC(C)C)nn2)cc1 | absorbance | 16.2 µM
CNC(=O)CCn1c(NC(C)C)nc2c(c1=O)C[C@@H](C)N(C(=O)c1ccc(Cl)c(C(F)(F)F)c1)C2 | luminescence | >50 µM
C[C@H](NC(=O)[C@@H](O)C1CCCCC1)C(=O)N[C@@H]1C(=O)N(C)c2ccccc2-c2ccccc21 | - | >10 µM
Cc1cc(Oc2ccc(-c3nc(N)nc(N)n3)cc2)cc(C)c1Cl | sulforhodamine / absorbance | >234 µM

Blank or dashed fields: not listed here. Conditions beyond the fields shown may differ between rows. CCn is the concentration with n% toxicity to the cells.